Data from article PMC2789096.

What was measured:
[1] = tested on: NC(=O)C1=CN([C@@H]2O[C@H](COP(=O)(O)OP(=O)(O)OC[C@H]3O[C@@H](n4cnc5c(N)ncnc54)[C@H](OP(=O)(O)O)[C@@H]3O)[C@@H](O)[C@H]2O)C=CC1; experiment: purified protein; conditions: pH 7.3; 25.0 °C
[2] = tested on: O=C(O)C1=CC(=O)[C@@H](O)[C@H](O)C1; experiment: purified protein; conditions: pH 7.3; 25.0 °C

Substance: (Mycobacterium tuberculosis H37Rv)
- Km [1]: 11.0 ± 0.6 µM
- Km [2]: 29 ± 2 µM
